Laboratory results: PubChem BioAssay AID1224833 (University of Georgia, 2016)
This is a random part of about 12,000 deposited reagents. Over the whole deposit, about 5,600 (46%) are marked active. 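Active calls cover z-scores past 1 in both directions, so they include lowered as well as raised rotavirus replication.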 Unmarked entries are inactive.

Purpose: 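Human genes whose knock-down alters rotavirus replication in monkey cells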 (primary screen)
Cells: monkey MA104 kidney cells
Reagent: siRNA pool against human genes, 50 nM
Timing: 48 h knock-down before infection; read 24 h after infection
Challenge: infection with rotavirus strain RV3 two days after transfection; infectious dose for this stage not given
Measured: 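Rotavirus antigen per well by fluorescent immunoassay, normalised to non-targeting control wells on each plate and given as a standard z-score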
Reading the numbers: z-score vs non-targeting control: higher = more rotavirus replication than with non-targeting control
Call rule: In these data the active calls have z-score vs non-targeting control at about -1 or lower, or at about 1 or higher
Meaning of the calls: active = z-score beyond 1 either way; inactive = z-score within 1 of zero

no.	Target gene	z-score vs non-targeting control
1	CEPT1 (GeneID 10390)	0.644
2	LGMN (GeneID 5641)	0.964
3	TECTB (GeneID 6975)	0.595
4	SSBP3 (GeneID 23648)	-0.181
5	REPS1 (GeneID 85021)	-1.26 (active)
6	RSPH6A (GeneID 81492)	1.78 (active)
7	WWC1 (GeneID 23286)	0.972
8	OR52N5 (GeneID 390075)	-0.468
9	FCGRT (GeneID 2217)	-0.694
10	TMEM263 (GeneID 90488)	-0.683
11	CAMSAP2 (GeneID 23271)	0.89
12	IRF1 (GeneID 3659)	0.958
13	TRAF2 (GeneID 7186)	0.834
14	CUTC (GeneID 51076)	-1.73 (active)
15	AMBRA1 (GeneID 55626)	-0.623
16	SNRNP40 (GeneID 9410)	3.33 (active)
17	KLHL6 (GeneID 89857)	1.11 (active)
18	CLSPN (GeneID 63967)	-2.87 (active)
19	SLC7A14 (GeneID 57709)	0.861
20	UBXN8 (GeneID 7993)	-1.32 (active)
21	MED28 (GeneID 80306)	-0.228
22	ZSCAN21 (GeneID 7589)	-1.08 (active)
23	DLGAP3 (GeneID 58512)	0.942
24	RGS9 (GeneID 8787)	-0.571
25	LCLAT1 (GeneID 253558)	-0.807
26	FRMPD4 (GeneID 9758)	-0.801
27	HDC (GeneID 3067)	-0.868
28	C6orf163 (GeneID 206412)	0.556
29	EOLA1 (GeneID 91966)	-1.27 (active)
30	ZNF76 (GeneID 7629)	-0.306
31	IFNGR2 (GeneID 3460)	-0.667
32	GPR157 (GeneID 80045)	-1.59 (active)
33	CCDC9 (GeneID 26093)	-1.86 (active)
34	FGD5 (GeneID 152273)	0.443
35	DUOX1 (GeneID 53905)	-1.26 (active)
36	L3MBTL2 (GeneID 83746)	-0.957
37	LOXL2 (GeneID 4017)	-0.818
38	ZGRF1 (GeneID 55345)	1.11 (active)
39	BPY2B (GeneID 442867)	0.368
40	CD320 (GeneID 51293)	-0.308
41	OR8K3 (GeneID 219473)	-0.368
42	CTNNAL1 (GeneID 8727)	0.594
43	TMEM134 (GeneID 80194)	-0.632
44	GDF7 (GeneID 151449)	2.07 (active)
45	ZFHX3 (GeneID 463)	-1.63 (active)
46	DYNLT4 (GeneID 343521)	-1.37 (active)
47	HYDIN (GeneID 54768)	-0.782
48	ABT1 (GeneID 29777)	1.47 (active)
49	RBBP5 (GeneID 5929)	-1.28 (active)
50	AKAP5 (GeneID 9495)	-2.57 (active)

The list goes on, starting with the last 3 of the part before.
no.	Target gene	z-score vs non-targeting control
48	ABT1 (GeneID 29777)	1.47 (active)
49	RBBP5 (GeneID 5929)	-1.28 (active)
50	AKAP5 (GeneID 9495)	-2.57 (active)
51	GYPC (GeneID 2995)	-1.82 (active)
52	HS6ST2 (GeneID 90161)	-0.869
53	RABGEF1 (GeneID 27342)	0.098
54	DIPK2A (GeneID 205428)	-1.06 (active)
55	THRB (GeneID 7068)	-0.687
56	SLCO1B7 (GeneID 338821)	-2.18 (active)
57	GNAZ (GeneID 2781)	-1.54 (active)
58	BCL7A (GeneID 605)	0.453
59	C17orf78 (GeneID 284099)	0.524
60	GAB3 (GeneID 139716)	0.579
61	PRRG4 (GeneID 79056)	1.38 (active)
62	DCN (GeneID 1634)	0.0256
63	WFS1 (GeneID 7466)	-1.35 (active)
64	POGZ (GeneID 23126)	2.18 (active)
65	CEND1 (GeneID 51286)	-2.23 (active)
66	TAS2R50 (GeneID 259296)	0.851
67	TLCD5 (GeneID 219902)	0.971
68	SRRM4 (GeneID 84530)	0.535
69	TMEM234 (GeneID 56063)	0.63
70	IMP4 (GeneID 92856)	0.503
71	SIGLEC8 (GeneID 27181)	0.358
72	FNDC8 (GeneID 54752)	-0.804
73	AOC3 (GeneID 8639)	-1.22 (active)
74	GPR151 (GeneID 134391)	1.6 (active)
75	DHX16 (GeneID 8449)	-1.11 (active)
76	OR10A7 (GeneID 121364)	0.671
77	H1-10 (GeneID 8971)	0.284
78	HYPK (GeneID 25764)	-0.835
79	HTT (GeneID 3064)	-1.1 (active)
80	DHRS4L2 (GeneID 317749)	0.215
81	BCLAF1 (GeneID 9774)	-1.37 (active)
82	ZSCAN26 (GeneID 7741)	0.965
83	PCYT1B (GeneID 9468)	1.56 (active)
84	LY6G5C (GeneID 80741)	-0.648
85	B3GAT1 (GeneID 27087)	0.653
86	MAGEA2B (GeneID 266740)	-2.93 (active)
87	DROSHA (GeneID 29102)	-1.34 (active)
88	MSRB2 (GeneID 22921)	-2.28 (active)
89	TMX1 (GeneID 81542)	-0.902
90	VSTM1 (GeneID 284415)	-0.487
91	ARHGAP42 (GeneID 143872)	2.21 (active)
92	PABIR2 (GeneID 159090)	-1.67 (active)
93	ANKMY2 (GeneID 57037)	-0.0839
94	COTL1 (GeneID 23406)	-0.449
95	MANBAL (GeneID 63905)	-0.334
96	PDCD1LG2 (GeneID 80380)	-1.48 (active)
97	PEX13 (GeneID 5194)	1.89 (active)
98	LPCAT3 (GeneID 10162)	0.269
99	LRRC63 (GeneID 220416)	1.48 (active)
100	ICA1 (GeneID 3382)	-0.927
101	SMC3 (GeneID 9126)	0.0348
102	DIAPH3 (GeneID 81624)	1.89 (active)
103	PABPC1 (GeneID 26986)	-0.961
104	PSMD3 (GeneID 5709)	1.26 (active)
105	FERMT3 (GeneID 83706)	0.233
106	IQCN (GeneID 80726)	3.39 (active)
107	ACAD8 (GeneID 27034)	-0.892
108	LSM3 (GeneID 27258)	-1.1 (active)
109	PCDH17 (GeneID 27253)	-1.77 (active)
110	XAGE2 (GeneID 9502)	-0.64
